A mixed list of measured activities; the numbers were collected in NIAID ChemDB.

All rows: growth or infection tests; organism: Cryptococcus neoformans

MIC50, MIC90 and the like: level of inhibition, or share of isolates inhibited. ECn is the concentration giving n% inhibition of infection, replication or growth. An empty or dashed field is not shown. Conditions beyond the fields shown may differ between rows. a–b is a range or a potency band.

compound	read-out	strain	read by	result
CC/C=C/C(CC)CCC[C@@]1(CC)C[C@H](CC)[C@H](CC(=O)O)OO1	MIC	-	-	5 µg/mL
C[C@@H]1C[C@@H]([C@H](O)CC2CC(=O)NC(=O)C2)C(=O)[C@@H](C)C1	MIC	-	-	6.25 µg/mL
C[C@@H]1CC[C@@]2(OC1)O[C@H]1C[C@H]3[C@@H]4CC=C5C[C@@H](O)[C@H](O)[C@@H](O[C@@H]6OC[C@@H](O)[C@H](O)[C@H]6O[C@@H]6O[C@@H](C)[C@H](O)[C@@H](O)[C@H]6O)[C@]5(C)[C@H]4CC[C@]3(C)[C@H]1[C@@H]2C	MFC	-	-	≥20 µg/mL
CCCCNC(=O)n1c(NC(=O)OC)nc2ccccc21	EC50	IU4	-	<3.7 µg/mL
CC1=COC2OC3(C)CCC4[C@H](C)CCC1[C@@]24O3	MIC	ATCC 90113	-	>50 µg/mL
CC/C=C/[C@H](CC)C/C(=C/[C@@]1(CC)C[C@H](CC)[C@H](CC(=O)O)OO1)CC	EC50	-	-	5.5 µg/mL
CN[C@@H]1[C@H](O)[C@@H](O)[C@H](O[C@H]2c3cc(C)c(C(=O)N[C@H](C)C(=O)O)c(O)c3-c3c(cc4c(c3O)C(=O)c3cc(OC)cc(O)c3C4=O)[C@@H]2O)O[C@@H]1C	MIC	IAM 4514	-	1.6 µg/mL
Cc1cccc(N(C)C(=S)Oc2ccc3ccccc3c2)c1	MIC	4 strains	-	>100 µg/mL
COc1cc(O)c2c(c1)C(=O)c1c(cc3c(c1O)-c1c(cc(C)c(C(=O)N[C@H](C)C(=O)O)c1O)[C@H](O[C@@H]1O[C@H](C)[C@H](N)[C@H](O[C@@H]4OC[C@@H](O)[C@H](O)[C@@H]4O)[C@H]1O)[C@H]3O)C2=O	MIC	IAM 4514	-	1.6 µg/mL
C[C@H]1[C@H](O)[C@@H](C)/C=C/C=C/C=C/C=C/C=C/C=C/C=C/[C@H](O[C@@H]2O[C@H](C)[C@@H](O)[C@H](N)[C@@H]2O)C[C@@H]2O[C@](O)(C[C@@H](O)C[C@@H](O)CC[C@H](O)[C@@H](O)C[C@@H](O)CC(=O)O[C@H]1C)C[C@H](O)[C@H]2C(=O)O	MIC100	ATCC 32264	broth dilution	0.25 µg/mL
c1ccc(CC[n+]2c3ccccc3cc3[nH]c4ccccc4c32)cc1	MIC	ATCC 52657	-	31.2 µg/mL
CC(C)(C)c1ccc(CN(Cc2cccc3ccccc23)n2ccnc2)cc1	MIC	-	-	>200 µM
COC1=CC(=O)c2c(O)cc(C)cc2C1=O	MFC	-	-	200 µg/mL
COc1cc(O)c2c(c1)C(=O)c1c(cc3c(c1O)-c1c(cc(C)c(C(=O)NC(CO)C(=O)O)c1O)[C@H](OC1OC(C)C(O)C(OC4OCC(O)C(O)C4O)C1O)C3O)C2=O	MIC	IAM 4514	-	1.6 µg/mL
C=C1[C@@H](OCCO)O[C@@H]2O[C@]3(C)CC[C@H]4[C@H](C)CC[C@@H]1C24OO3	MIC	ATCC 90113	-	>50 µg/mL
c1ccc2c(c1)cc1[nH]c3ccccc3c1[n+]2CC1CCCC1	MIC	ATCC 52657	-	62.5 µg/mL
C/C=C\C(C)=C\[C@H](C)C(=O)C[C@H](O)CC1CC(=O)NC(=O)C1	MIC	KF-33	-	50 µg/mL
CC[n+]1c2ccccc2cc2[nH]c3ccccc3c21	MIC	ATCC 52657	-	31.2 µg/mL
CN(C/C=C/C#CC(C)(C)C)Cc1cccc2ccccc12	MIC100	ATCC 32264	broth dilution	0.39 µg/mL
C[C@H]1[C@@H](OCCCCO)O[C@@H]2O[C@]3(C)CC[C@H]4[C@H](C)CC[C@@H]1C24OO3	MIC	ATCC 90113	-	>50 µg/mL
C[C@@H]1CC[C@@]2(OC1)O[C@H]1C[C@H]3[C@@H]4CC=C5C[C@@H](O)[C@H](O)[C@@H](O[C@@H]6OC[C@@H](O)[C@H](O)[C@H]6O[C@@H]6O[C@@H](C)[C@H](O)[C@@H](O)[C@H]6O)[C@]5(C)[C@H]4CC[C@]3(C)[C@@]1(O)[C@@H]2C	MFC	-	-	10 µg/mL
CC1=CC(=O)c2c(O)cccc2C1=O	MFC	-	-	40 µg/mL
Cn1c2c3ccccc3nc-2cc2ccccc21	MIC	ATCC 52657	-	12.5–15.6 µg/mL
C=C1CO[C@@]2(O[C@H]3C[C@H]4[C@@H]5CC=C6C[C@@H](O)[C@H](O)[C@@H](O[C@@H]7O[C@H](CO)[C@H](O)[C@H](O)[C@H]7O)[C@]6(C)[C@H]5CC[C@]4(C)[C@H]3[C@@H]2C)[C@@H](O)C1	MIC	-	-	≥20 µg/mL
C=C1C(=O)O[C@@H]2O[C@]3(C)CC[C@H]4[C@H](C)CC[C@@H]1C24OO3	MIC	ATCC 90113	-	>50 µg/mL
CCC[n+]1c2ccccc2cc2[nH]c3ccccc3c21	MIC	ATCC 52657	-	31.2 µg/mL
COc1ccc(/C=C2\SC(N(C)C)=NC2=O)cc1	MIC100	ATCC 32264	broth dilution	>250 µg/mL
c1ccc2[nH]cnc2c1	EC50	IU4	-	<4 µg/mL
c1ccc2c(c1)cc1[nH]c3ccccc3c1[n+]2CC1CCC1	MIC	ATCC 52657	-	15.6 µg/mL
CC(C)(C)c1ccc(CN(Cc2cccc3ccccc23)n2cnnc2)cc1	MIC	-	-	>200 µM
COC(=O)Nc1nc2ccc(Sc3ccccc3)cc2[nH]1	EC50	IU8698	-	0.011 µg/mL
C=C(CCC1(OC)O[C@H]2C[C@H]3[C@@H]4CC=C5C[C@@H](O)[C@H](O)[C@@H](O[C@@H]6OC[C@@H](O)[C@H](O)[C@H]6O)[C@]5(C)[C@H]4CC[C@]3(C)[C@H]2[C@@H]1C)CO[C@@H]1O[C@H](CO)[C@@H](O)[C@H](O)[C@H]1O	MFC	-	-	≥20 µg/mL

The last 2 rows once more:

compound,read-out,strain,read by,result
COC(=O)Nc1nc2ccc(Sc3ccccc3)cc2[nH]1,EC50,IU8698,-,0.011 µg/mL
C=C(CCC1(OC)O[C@H]2C[C@H]3[C@@H]4CC=C5C[C@@H](O)[C@H](O)[C@@H](O[C@@H]6OC[C@@H](O)[C@H](O)[C@H]6O)[C@]5(C)[C@H]4CC[C@]3(C)[C@H]2[C@@H]1C)CO[C@@H]1O[C@H](CO)[C@@H](O)[C@H](O)[C@H]1O,MFC,-,-,≥20 µg/mL